Results deposited as PubChem BioAssay AID1259414 (Drosophila RNAi Screening Center, 2018).
The deposit covers about 24,000 reagents; shown is a random part of those with a known target gene and a result. Of all reagents, about 1,210 (5%) were called active. 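Inactive calls also include excluded dsRNAs with several or no targets, genes unexpressed in JW18, and well A1, regardless of score.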 Reagents against one gene are numbered here. No sequences are given here.

Purpose: 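Host factors increasing or decreasing Wolbachia levels in cultured fly cells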 (primary screen)
Cell system: Drosophila JW18 cells infected with Wolbachia
Reagent: long dsRNA against Drosophila genes, 0.25 µg dsRNA per well of a 384-well plate
Timing: 5 days
Treatment: cells persistently infected with Wolbachia before knock-down; no added drug
Detection: 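Imaged fluorescence in situ signal for Wolbachia 23S rRNA per DAPI-counted host cell, given as a robust z-score within each plate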
Reading the numbers: Wolbachia per cell robust z: higher = more Wolbachia per host cell than the plate typical
Rule for the call: 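Hit when robust z is 1.5 or more, or -1.5 or less, in at least two of three replicates; excludes dsRNAs with several or no targets, genes not expressed in JW18 and well A1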

With knock-down of Suv3 (GeneID 40543) the results were Wolbachia per cell robust z, rep 1 = -0.0757; Wolbachia per cell robust z, rep 2 = -0.515; Wolbachia per cell robust z, rep 3 = -0.278; inactive.
After knock-down of CG9875 (GeneID 37698), the record shows Wolbachia per cell robust z, rep 1 = -1.11; Wolbachia per cell robust z, rep 2 = 0.188; Wolbachia per cell robust z, rep 3 = -0.585; inactive.
With knock-down of CG31826 (GeneID 326164), the record shows Wolbachia per cell robust z, rep 1 = 0.842; Wolbachia per cell robust z, rep 2 = 0.558; Wolbachia per cell robust z, rep 3 = -4; inactive.
Silencing of CG43312 (GeneID 12798458) resulted in: Wolbachia per cell robust z, rep 1 = 0.547; Wolbachia per cell robust z, rep 2 = -2.7; Wolbachia per cell robust z, rep 3 = 1.27; inactive.
With knock-down of Ac3 (GeneID 35419), the record shows Wolbachia per cell robust z, rep 1 = -0.705; Wolbachia per cell robust z, rep 2 = 0.931; Wolbachia per cell robust z, rep 3 = 0.747; inactive.
Depletion of prd1 (GeneID 41425) resulted in: Wolbachia per cell robust z, rep 1 = -2.13; Wolbachia per cell robust z, rep 2 = 0.4; Wolbachia per cell robust z, rep 3 = 0.775; inactive.
Depletion of CG10911 (GeneID 37058) gave: Wolbachia per cell robust z, rep 1 = 0.742; Wolbachia per cell robust z, rep 2 = 0.558; Wolbachia per cell robust z, rep 3 = -1.63; inactive.
After knock-down of CG7810 (GeneID 34139) #1, the record shows Wolbachia per cell robust z, rep 1 = 0.518; Wolbachia per cell robust z, rep 2 = 0.69; Wolbachia per cell robust z, rep 3 = 0.608; inactive.
With knock-down of CG7810 (GeneID 34139) #2, the record shows Wolbachia per cell robust z, rep 1 = 0.772; Wolbachia per cell robust z, rep 2 = 0.129; Wolbachia per cell robust z, rep 3 = 0.583; inactive.
Silencing of BaraC (GeneID 246528) resulted in: Wolbachia per cell robust z, rep 1 = 0.248; Wolbachia per cell robust z, rep 2 = -0.0455; Wolbachia per cell robust z, rep 3 = -0.968; inactive.
With knock-down of CG15483 (GeneID 34687), the record shows Wolbachia per cell robust z, rep 1 = -0.31; Wolbachia per cell robust z, rep 2 = -3.36; Wolbachia per cell robust z, rep 3 = -0.62; inactive.
After knock-down of Arr2 (GeneID 38993), the screen gave Wolbachia per cell robust z, rep 1 = -1.79; Wolbachia per cell robust z, rep 2 = 1.12; Wolbachia per cell robust z, rep 3 = 0.488; inactive.

2 consecutive entries from above:
CG15483 (GeneID 34687) | Wolbachia per cell robust z, rep 1: -0.31; Wolbachia per cell robust z, rep 2: -3.36; Wolbachia per cell robust z, rep 3: -0.62; outcome: inactive
Arr2 (GeneID 38993) | Wolbachia per cell robust z, rep 1: -1.79; Wolbachia per cell robust z, rep 2: 1.12; Wolbachia per cell robust z, rep 3: 0.488; outcome: inactive

The results go on.
CG33108 (GeneID 326257) #1 showed Wolbachia per cell robust z, rep 1 = -0.984; Wolbachia per cell robust z, rep 2 = -0.316; Wolbachia per cell robust z, rep 3 = 0.038; inactive.
For CG33108 (GeneID 326257) #2, the values are Wolbachia per cell robust z, rep 1 = 0.895; Wolbachia per cell robust z, rep 2 = 1.43; Wolbachia per cell robust z, rep 3 = 0.697; inactive.
Depletion of Spred (GeneID 36643) #1 came out at: Wolbachia per cell robust z, rep 1 = -0.355; Wolbachia per cell robust z, rep 2 = -5.43; Wolbachia per cell robust z, rep 3 = -1.33; inactive.
With knock-down of Spred (GeneID 36643) #2, the record shows Wolbachia per cell robust z, rep 1 = -5.25; Wolbachia per cell robust z, rep 2 = -6.94; Wolbachia per cell robust z, rep 3 = -5.43; inactive.
Against Ag5r2 (GeneID 44079) the deposit lists Wolbachia per cell robust z, rep 1 = -0.282; Wolbachia per cell robust z, rep 2 = -0.323; Wolbachia per cell robust z, rep 3 = 0.122; inactive.
Knock-down of knon (GeneID 36845) came out at: Wolbachia per cell robust z, rep 1 = -2.07; Wolbachia per cell robust z, rep 2 = 0.353; Wolbachia per cell robust z, rep 3 = 0.482; inactive.
After knock-down of CG9775 (GeneID 40576) #1, the record shows Wolbachia per cell robust z, rep 1 = -2.27; Wolbachia per cell robust z, rep 2 = -0.129; Wolbachia per cell robust z, rep 3 = -0.535; inactive.
Silencing of CG9775 (GeneID 40576) #2 gave: Wolbachia per cell robust z, rep 1 = -2.06; Wolbachia per cell robust z, rep 2 = -1.03; Wolbachia per cell robust z, rep 3 = -0.941; inactive.
After knock-down of GstE4 (GeneID 37109) #1, the record shows Wolbachia per cell robust z, rep 1 = -4.42; Wolbachia per cell robust z, rep 2 = -1.57; Wolbachia per cell robust z, rep 3 = -0.0802; inactive.
After knock-down of GstE4 (GeneID 37109) #2, the record shows Wolbachia per cell robust z, rep 1 = -0.295; Wolbachia per cell robust z, rep 2 = 0.18; Wolbachia per cell robust z, rep 3 = -0.0308; inactive.
With knock-down of CanB2 (GeneID 46456) #1, the record shows Wolbachia per cell robust z, rep 1 = -2.21; Wolbachia per cell robust z, rep 2 = 0.597; Wolbachia per cell robust z, rep 3 = 0.0355; inactive.
Against CanB2 (GeneID 46456) #2, the entry reads Wolbachia per cell robust z, rep 1 = 0.213; Wolbachia per cell robust z, rep 2 = -0.574; Wolbachia per cell robust z, rep 3 = -0.687; inactive.
After knock-down of CanB2 (GeneID 46456) #3 the results were Wolbachia per cell robust z, rep 1 = -0.489; Wolbachia per cell robust z, rep 2 = -1.85; Wolbachia per cell robust z, rep 3 = -0.744; inactive.
